Pooled drug test results. Numbers come from NIAID ChemDB, via PubChem.

All rows: tests in culture; species: Mycobacterium tuberculosis

ECn: concentration that inhibits the pathogen or its effect by n%.

smiles | read by | cells | mutations | measure | setting | strain | tested at | value
CCC1CCC2(CC1)SCC(=O)N2NC(=O)Cc1csc2nc(-c3ccccc3)cn12 | - | VERO | - | MIC | - | H37Rv | - | 3.13 µg/mL
O=C1NC(NNC(=O)c2ccncc2)=N/C1=C\c1cccc(Cl)c1 | resazurin | VERO | - | inhibition | - | H37Rv | 12.5 µg/mL | 99%
C[C@H](CC[C@H]1OC1(C)C)[C@H]1CC[C@@]2(C)[C@@H]3CC[C@H]4C(C)(C)C(=O)CC[C@@]45C[C@@]35CC[C@]12C | - | - | - | MIC | - | H37Rv | - | 8 µg/mL
CCOC(=O)c1cc(CNc2cccc(OC)c2)on1 | low oxygen | - | - | MIC | - | H37Rv | - | 126 µM
CC(C)(C)c1cc(C(C)(C)C)c2oc(-c3ccccn3)nc2c1 | BACTEC | - | - | inhibition | - | H37Rv | 6.25 µg/mL | 79%
S=c1oc2ccc(Br)cc2c(=S)n1-c1ccccc1 | - | - | - | MIC | 21 d | My 331/88 | - | 2 µM
Nc1sc(-c2ccccc2)cc1C(=O)O | resazurin | - | - | EC50 | - | H37Rv | - | 129 µM
Nc1ccc(C(=O)O)c(O)c1 | - | - | - | Median MIC | - | H37Ra | - | 2 µg/mL
Cc1cc2c(cc1C)[n+](=O)c(C(=O)CC(=O)C(=O)Nc1ccccc1C)c(C)n2[O-] | resazurin | - | - | inhibition | - | H37Rv | 6.25 µg/mL | -2%
CCCCCc1cc(OC)c2ccccc2n1 | - | - | - | MIC | - | MT8 | - | 6.25 µg/mL
CC(C)(C)c1cc(C(C)(C)C)c2oc(-c3ccccc3C(F)(F)F)nc2c1 | BACTEC | - | - | inhibition | - | H37Rv | 6.25 µg/mL | <90%
COc1cc2c(cc1OC)-c1nc(N)sc1CC2 | resazurin | - | - | inhibition | - | H37Rv | 6.25 µg/mL | -13%
CC(C)(C)c1cc(C(C)(C)C)c2oc(-c3ccccc3Br)nc2c1 | - | - | - | MIC | - | H37Rv | - | >128 µg/mL
O=C1NC(=NCc2ccccc2)N/C1=C\c1ccc(Cl)cc1 | resazurin | VERO | - | inhibition | - | H37Rv | 12.5 µg/mL | 97%
Clc1ccc(C2=CSC3=NCCN23)cc1 | BACTEC | - | - | inhibition | - | H37Rv | 6.25 µg/mL | 6%
CCn1cc(C(=O)O)c(=O)c2cc(F)c(N3CCN(Cn4c(O)c(N=NC(N)=O)c5cc(Br)ccc54)CC3)cc21 | BACTEC | - | - | EC50 | - | H37Rv | - | <12.5 µg/mL
S=C(S)N1CCCCC1 | - | - | - | MIC | - | KM-R | - | 0.8 µg/mL
Fc1ccc2oc(=S)n(-c3ccccc3)c(=S)c2c1 | - | - | - | MIC | 21 d | My 331/88 | - | 4 µM
CC(C)(C)c1cc(C(C)(C)C)c2oc(-c3ccccc3[N+](=O)[O-])nc2c1 | BACTEC | - | - | inhibition | - | H37Rv | 6.25 µg/mL | <90%
COC(=O)c1nc2n[nH]c(N)c2c2c1CCCCCCCCCC2 | BACTEC | - | - | MIC bound | - | H37Rv | - | >12.5 µg/mL
CC1(C)CC(N=c2cc3n(-c4cc(Cl)cc(Cl)c4)c4ccccc4nc-3cc2Nc2cc(Cl)cc(Cl)c2)CC(C)(C)N1 | - | Macrophages | - | EC50 | inside macrophages | H37Rv | - | <0.005 µg/mL
O=C1NC(NNC(=O)c2ccncc2)=N/C1=C\c1ccccc1Cl | colony count | - | - | EC50 | inside macrophages | Erdman | - | <0.85 µg/mL
CO[C@H]1/C=C/O[C@@]2(C)Oc3c(C)c(O)c4c(O)c(c5c(c4c3C2=O)NC2(CCN(CC(C)C)CC2)N=5)=NC(=O)/C(C)=C\C=C\[C@H](C)[C@H](O)[C@@H](C)[C@@H](O)[C@@H](C)[C@H](OC(C)=O)[C@@H]1C | - | - | - | MIC | - | Strain 76 (H526G) | - | 0.25 µg/mL
COc1ccc2c(c1)CC1c3c(cc4c(c3-2)OCO4)CCN1C | BACTEC | - | - | MIC bound | - | H37Rv | - | >12.5 µg/mL
COc1ccc(CCc2cc(OC)c3ccccc3n2)cc1OC | - | - | - | MIC | - | MT8 | - | 39 µg/mL
NC(=O)c1cnccn1 | - | - | - | MIC | - | Isolate 97-1052 | - | 300 µg/mL
COc1c(C)c2c3c4c1C(=O)C(=CC4=O)NC(=O)/C(C)=C\C=C\[C@H](C)[C@@H]1OC(C)(C)O[C@@H]([C@@H](C)[C@H](OC(C)=O)[C@H](C)[C@@H](OC)/C=C/O[C@@](C)(O2)C3=O)[C@@H]1C | BACTEC | VERO | - | MIC | - | H37Rv | - | <0.1 µg/mL
CCOC(=O)c1c(NC(=O)c2c(F)c(F)c(F)c(F)c2F)sc2c1CCN(CC)C2 | resazurin | - | Rifampicin-resistant D94N | MIC | - | H37Rv | - | 0.37 µM
C[C@@H]1CN(c2c(F)c(N)c3c(=O)c(C(=O)O)cn(C4CC4)c3c2F)C[C@H](C)N1 | - | - | - | Median MIC | - | H37Rv | - | 0.12 µg/mL
O=C(Cc1csc2nc(-c3ccccc3)cn12)NN=C1CCCCC1 | - | - | - | MIC | - | H37Rv | - | >6.25 µg/mL
CCOC(=O)c1cc(-c2ccccc2)sc1NC(=O)c1ccccc1 | resazurin | - | - | MIC | - | H37Rv | - | >200 µM
CO[C@@H]1/C=C\C=C(/C)C(=O)NC2=CC(=O)C(N)=C(C[C@@H](C)C[C@@H](OC)[C@@H](O)[C@H](C)/C=C(\C)[C@H]1OC(N)=O)C2=O | BACTEC | - | - | inhibition | - | H37Rv | 12.5 µg/mL | 16%
Cc1ccc2oc(=O)n(-c3ccc(Cl)cc3)c(=S)c2c1 | - | - | - | MIC | 21 d | My 331/88 | - | 0.5 µM
CN[C@@H]1[C@@H](O)[C@@H](O[C@@H]2[C@@H](O)[C@H](O[C@H]3O[C@H](CN)CC[C@H]3N)[C@@H](N)C[C@H]2N)OC[C@]1(C)O | - | - | - | Mean MIC | - | H37Rv | - | 6 µg/mL
O=c1oc2ccc(F)cc2c(=S)n1-c1cccc(F)c1 | - | - | - | MIC | 21 d | My 331/88 | - | 16 µM
CC1CCC2(CC1)SCC(=O)N2NC(=O)Cc1csc2nc(-c3ccc(Cl)cc3)cn12 | - | - | - | EC50 | - | H37Rv | - | <6.25 µg/mL
CCOC(=O)c1cc(CNc2ccc(OC)nc2)on1 | - | - | - | MIC | - | H37Rv | - | 127.5 µM
S=C(NCCNC(=S)[S][Sn]([c]1ccccc1)([c]1ccccc1)[c]1ccccc1)[S][Sn]([c]1ccccc1)([c]1ccccc1)[c]1ccccc1 | - | - | - | MIC | - | PZA-R | - | 0.4 µg/mL
CC1=C2[C@H]3OC(=O)[C@@H](C)[C@@H]3CC[C@@]2(C)C=CC1=O | - | - | - | MIC | - | H37Rv | - | >128 µg/mL
O=c1c(O)c(-c2cc(O)c(O)c(O)c2)oc2cc(O)cc(O)c12 | BACTEC | - | - | MIC bound | - | H37Rv | - | >12.5 µg/mL
CCOC(=O)c1cc(-c2ccccc2)sc1N | resazurin | - | - | MIC | - | H37Rv | - | >400 µM
CC1=CC(=O)C(C(C)C)=CC1=O | BACTEC | - | - | MIC bound | - | H37Rv | - | ≤128 µg/mL
CC(C)(C)c1cc(C(C)(C)C)c2oc(-c3ccc(Br)cc3)nc2c1 | BACTEC | - | - | MIC | - | H37Rv | - | 6.25 µg/mL
C=C1C(=O)O[C@@H]2C[C@@]3(C)CCC(=O)C(C)=C3C[C@H]12 | - | - | - | MIC | - | H37Rv | - | 128 µg/mL
CC1CCCC2(C1)SCC(=O)N2NC(=O)Cc1csc2nc(-c3ccc(Cl)cc3)cn12 | - | - | - | MIC | - | H37Rv | - | >6.25 µg/mL
CCCCNC(=O)c1nc(-c2ccccc2)c(-c2ccccc2)nc1N | BACTEC | - | - | inhibition | - | H37Rv | 12.5 µg/mL | 65%
CCn1cc(C(=O)O)c(=O)c2cc(F)c(N3CCN(Cn4c(O)c(N=NC(=O)c5ccncc5)c5ccccc54)CC3)cc21 | BACTEC | - | - | inhibition | - | H37Rv | 12.5 µg/mL | 100%
CCC[C@@H]1C[C@@H](C(=O)N[C@@H]([C@H]2O[C@H](SC)[C@H](O)[C@@H](O)[C@H]2O)[C@@H](C)O)N(C)C1 | - | - | - | Median MIC | - | H37Ra | - | >256 µg/mL
CCOC(=O)c1cc(CNc2cc(C)cc(C)c2)on1 | resazurin | - | - | MIC | - | H37Rv | - | 7 µM
O=C(NCCO)c1c(CNC2CCCCC2)n([O-])c2ccccc2[n+]1=O | resazurin | - | - | MIC bound | - | H37Rv | - | >6.25 µg/mL
CCOC(=O)c1c(N(F)C(=O)c2c(F)c(F)c(F)c(F)c2F)sc2c1CCN(C(=O)OC(C)(C)C)C2 | resazurin | - | - | MIC | - | H37Rv | - | >100 µM
O=c1[nH]nc(-c2ccc([N+](=O)[O-])o2)c(=O)[nH]1 | BACTEC | - | - | MIC | - | H37Rv | - | ≥12.5 µg/mL
Cc1cccc(-c2nc3cc(C(C)(C)C)cc(C(C)(C)C)c3o2)n1 | BACTEC | - | - | inhibition | - | H37Rv | 6.25 µg/mL | <90%
CCn1cc(C(=O)O)c(=O)c2cc(F)c(N3CCN(CN4C(=O)C(=O)c5cc(Br)ccc54)CC3)cc21 | BACTEC | - | - | MIC | - | H37Rv | - | <12.5 µg/mL
CC1(C)CC(N=c2cc3n(-c4ccc(Cl)cc4Cl)c4ccccc4nc-3cc2Nc2ccc(Cl)cc2Cl)CC(C)(C)N1 | - | - | - | MIC | - | TBRP321 (INH RMP-resistant) | - | 0.06 µg/mL
CC1CCC2(CC1)SC(C)C(=O)N2NC(=O)Cc1csc2nc(-c3ccc(Cl)cc3)cn12 | - | - | - | MIC | - | H37Rv | - | >6.25 µg/mL
CC(=O)C(CO)C(=O)Nc1ccccc1 | BACTEC | - | - | MIC bound | - | H37Rv | - | >12.5 µg/mL
Cc1ccc2oc(=S)n(-c3ccc(Cl)cc3)c(=S)c2c1 | - | - | - | MIC | 14 d | My 331/88 | - | 0.5 µM
CO[C@H]1/C=C/O[C@@]2(C)Oc3c(C)c(O)c4c(=O)c(c5oc6cc(N7CCN(CC(C)C)CC7)cc(=O)c6nc5c4c3=C2O)NC(=O)/C(C)=C\C=C\[C@H](C)[C@H](O)[C@@H](C)[C@@H](O)[C@@H](C)[C@H](OC(C)=O)[C@@H]1C | - | - | - | MIC | - | 3113 (rifampin-sensitive) | - | 0.006 µg/mL
Cc1ccc(-n2c(=S)oc3ccc(F)cc3c2=S)cc1 | - | - | - | MIC | 21 d | My 331/88 | - | 2 µM
CC(C)(C)c1cc(C(C)(C)C)c2oc(-c3cccs3)nc2c1 | BACTEC | - | - | inhibition | - | H37Rv | 6.25 µg/mL | <90%
CO[C@H]1/C=C/O[C@@]2(C)Oc3c(C)c(O)c4c(O)c(c5c(c4c3C2=O)NC2(CCN(CC(C)C)CC2)N=5)=NC(=O)/C(C)=C\C=C\[C@H](C)[C@H](O)[C@@H](C)[C@@H](O)[C@@H](C)[C@H](OC(C)=O)[C@@H]1C | - | - | - | MBC | - | 2912 (rifampin-sensitive) | - | 0.05 µg/mL
C[C@@H]1C(=O)O[C@H]2[C@H]1CCC1(C)O[C@@H]1CC[C@@]1(C)O[C@@H]21 | - | - | - | MIC | - | H37Rv | - | 128 µg/mL
CCOC(=O)c1c(NC(C)=O)sc2c1CCN(CC)C2 | resazurin | - | - | MIC | - | H37Rv | - | >300 µM
CC1=CC(C/C(C)=C/COc2ccc3ccc(=O)oc3c2)OC1=O | BACTEC | - | - | MIC bound | - | H37Rv | - | >12.5 µg/mL
C=C[C@]1(C)C=C2[C@H](O)C[C@@H]3C(C)(CCC[C@@]3(C)CO)[C@H]2CC1 | - | - | - | MIC | - | H37Rv | - | 25–100 µg/mL
CCOC(=O)c1cc(CNc2cccc3ccccc23)on1 | low oxygen | - | - | MIC | - | H37Rv | - | 7.6 µM
Cc1cn(CCCOc2c3occc3cc3ccc(=O)oc23)c(=O)[nH]c1=O | resazurin | - | - | MIC bound | - | H37Rv | - | >6.25 µg/mL
O=C1NC(NNC(=O)c2ccncc2)=N/C1=C\c1ccc(Cl)cc1 | resazurin | VERO | - | MIC | - | H37Rv | - | 3.13 µg/mL
CO[C@H]1/C=C/O[C@@]2(C)Oc3c(C)c(O)c4c(O)c(c(/C=N/N5CCN(C)CC5)c(O)c4c3C2=O)NC(=O)/C(C)=C\C=C\[C@H](C)[C@H](O)[C@@H](C)[C@@H](O)[C@@H](C)[C@H](OC(C)=O)[C@@H]1C | resazurin / absorbance | - | inhA mutant isoniazid resistant | MIC | - | HUG.MB.6726 | - | 0.001 µg/mL
O.O=C(Cc1csc2nc(-c3ccccc3)cn12)NN1C(=O)CSC12CCCCC2 | - | VERO | - | inhibition | - | H37Rv | 6.25 µg/mL | 96%
CCOC(=O)c1cc(CNc2ccc(C(F)(F)F)cc2)on1 | low oxygen | - | - | MIC | - | H37Rv | - | 9 µM
O=C1OC2C(COC(=O)c3cc(O)c(O)c(O)c3-c3c(O)c(O)c4oc(=O)c5c(c(O)c(O)c6oc(=O)c3c4c65)-c3cc1c(O)c(O)c3O)OC(O)[C@@H]1OC(=O)c3cc(O)c(O)c(O)c3-c3c(cc(O)c(O)c3O)C(=O)OC21 | BACTEC | - | - | MIC bound | - | H37Rv | - | >12.5 µg/mL
S=c1oc2ccc(Br)cc2c(=S)n1-c1cccc(Cl)c1 | - | - | - | MIC | 14 d | My 331/88 | - | 1 µM
O=C(On1nnc2ccccc2c1=O)c1ccccc1 | BACTEC | - | - | inhibition | - | H37Rv | 12.5 µg/mL | 33%
CCn1cc(C(=O)O)c(=O)c2cc(F)c(N3CCN(Cn4c(O)c(N=NC(N)=S)c5cc(Cl)ccc54)CC3)cc21 | BACTEC | - | - | EC50 | - | H37Rv | - | <12.5 µg/mL
CC1(C)OC2OC(C(O)CO)C(OC(=S)SSC(=S)OC3C(C(O)CO)OC4OC(C)(C)OC43)C2O1 | BACTEC | - | - | MIC bound | - | H37Rv | - | >12.8 µg/mL
CO[C@H]1/C=C/O[C@@]2(C)Oc3c(C)c(O)c4c(O)c(c(/C=N/N5CCN(C)CC5)c(O)c4c3C2=O)NC(=O)/C(C)=C\C=C\[C@H](C)[C@H](O)[C@@H](C)[C@@H](O)[C@@H](C)[C@H](OC(C)=O)[C@@H]1C | resazurin | - | INH resistant Y155* truncation | MIC | - | H37Rv | - | 0.012 µM

Blank or dashed fields: not listed here. a–b is a range or a potency band. MIC bound comes from a single tested concentration. Lines come from different laboratories, so protocols vary. Inhibition is in % at the dose shown (toxicity tests: loss of growth or viability).